Paper PMC9491098, “Discovery of novel drug-like antitubercular hits targeting the MEP pathway enzyme DXPS by strategic application of ligand-based virtual screening” (Chemical Science, 2022)

Protein sequences, listed by entry. Tags and fused reporters are not part of them. Lines headed by an entry give the natural chain unless they say otherwise; changes in a name come on top.
UniProt P9WNS3: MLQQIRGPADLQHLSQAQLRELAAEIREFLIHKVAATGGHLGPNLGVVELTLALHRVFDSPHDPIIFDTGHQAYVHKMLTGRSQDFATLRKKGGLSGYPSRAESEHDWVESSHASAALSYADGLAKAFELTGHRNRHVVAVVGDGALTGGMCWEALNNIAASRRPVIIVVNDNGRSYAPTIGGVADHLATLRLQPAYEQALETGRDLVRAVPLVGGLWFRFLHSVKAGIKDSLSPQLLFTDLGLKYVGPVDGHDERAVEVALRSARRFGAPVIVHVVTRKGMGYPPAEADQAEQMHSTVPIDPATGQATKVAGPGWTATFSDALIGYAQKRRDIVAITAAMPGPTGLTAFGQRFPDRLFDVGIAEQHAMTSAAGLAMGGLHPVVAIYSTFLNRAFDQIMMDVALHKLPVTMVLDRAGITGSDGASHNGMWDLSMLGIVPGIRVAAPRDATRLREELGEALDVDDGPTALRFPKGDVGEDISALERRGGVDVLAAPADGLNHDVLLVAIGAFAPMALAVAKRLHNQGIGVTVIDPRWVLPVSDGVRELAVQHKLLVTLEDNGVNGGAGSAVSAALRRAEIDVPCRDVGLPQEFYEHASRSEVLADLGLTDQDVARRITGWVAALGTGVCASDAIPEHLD

These compounds were tested against MtDXPS (Mycobacterium tuberculosis, UniProt P9WNS3) (assay: coupled spectrophotometric enzyme activity assay against MtDXPS). Conditions: Table S1, first round of LBVS.
Type: biochemical

Row | SMILES | pIC50
1 | O=C(O)c1cccc(-n2cccc2/C=N/O)c1 | 3.34
2 | CC(C)c1ccc(Cn2c(CCO)nc3ccccc32)cc1 | 3.50
3 | Cc1nc(N)c(CC(Br)CBr)c(Cl)n1 (centres unmarked) | 3.13
4 | NC1=NC(c2ccc(Cl)cc2Cl)n2c(nc3ccccc32)N1 (centres unmarked) | 3.84
5 | O/N=C(\c1ccc(F)cc1)c1ccc(O)cc1O | 3.28
6 | Cc1c2ncn(Cc3ccc(Cl)cc3)c(=O)c2nn1C | 3.00

Same assay, conditions: Table S2, second round of LBVS

Row | SMILES | pIC50
7 | OCCc1nc2ccccc2n1Cc1c(F)cccc1Cl | 3.05
8 | CC(c1ccccc1)n1c(CCO)nc2ccccc21 (centres unmarked) | 3.14
9 | OCCc1nc2ccccc2n1Cc1c(Cl)cccc1Cl | 3.33
10 | O=C1/C(=N\O)c2cccc(Cl)c2N1Cc1ccccc1 | 3.78
11 | OCCc1nc2ccccc2n1Cc1ccccc1 | 2.54
12 | CC(O)c1nc2ccccc2n1Cc1c(F)cccc1Cl (centres unmarked) | 2.96
13 | OCC(O)Cn1c(Cc2ccc(-c3ccccc3)cc2)nc2ccccc21 (centres unmarked) | 3.42

Same assay, conditions: Table S3, third round of LBVS

Row | SMILES | pIC50
14 | Cc1nc(N)sc1-c1csc(Nc2ccc(S(N)(=O)=O)cc2)n1 | 3.50
15 | Cc1nc(N)sc1-c1csc(Nc2cccnc2)n1 | 3.42
16 | FC(F)(F)c1ccccc1Nc1nc(-c2ccccn2)cs1 | 4.07
17 | FC(F)(F)c1cccc(Nc2nc(-c3ccccn3)cs2)c1 | 3.77

pIC50: −log10 of the molar value.
